Measured values taken from patent US8574608B2, “Bactericidal silver surfactant delivery into coating and polymer compositions” (Eastern Michigan Universtity, priority 2007, dated 2013).

Legend:
[1] = test system: S. aureus; assay: S. aureus challenged by silver surfactants in laboratory acrylic clearcoat; format: cell-based, Staphylococcus aureus; details: 24 h contact time; for surviving bacteria (growth): laboratory solvent borne acrylate clearcoat; as to surviving bacteria (growth): key: A minus sign (−) denotes no growth; a plus sign (+) denotes confluent growth; a capital P (P) denotes particle growth
[2] = test system: E. coli; assay: E. coli challenged by silver surfactants in laboratory acrylic paint; format: cell-based, Escherichia coli; details: laboratory solvent borne acrylate paint coating, 24 h contact time; also: key: A minus sign (−) denotes no growth; a plus sign (+) denotes confluent growth; a capital P (P) denotes particle growth
[3] = test system: E. coli ATCC 11229; assay: Survival of E. coli on silver surfactant polyurethane coated lantern slides; details: for CFU/mL of E. coli at 0 hours / CFU/mL of E. coli at 24 hours: PU coated lantern slide, 2 runs
[4] = test system: Escherichia coli ATCC 11229; assay: E. coli challenge by household surfaces sprayed with AgAOT; details: for CFU/mL, Avg / CFU/mL, Run #1-#2: sprayed 0.06% silver solution
[5] = test system: E. coli ATCC 11229; assay: Challenge of E. coli by AgAOT doped polyurethane coatings on microscope slides; details: for CFU/mL of E. coli at 24 hours / CFU/mL of E. coli at 12 hours: PU microscope slide coating, triplicate
[6] = test system: E. coli; assay: E. coli challenged by silver surfactants in commercial 2K epoxy paint; format: cell-based, Escherichia coli; details: 24 h contact time; for surviving bacteria (growth): commercial 2K epoxy paint coating; as to surviving bacteria (growth): key: A minus sign (−) denotes no growth; a plus sign (+) denotes confluent growth; a capital P (P) denotes particle growth
[7] = test system: E. coli; assay: E. coli challenged by silver surfactants in commercial alkyd paint; format: cell-based, Escherichia coli; details: alkyd resin paint coating, 24 h contact time; also: key: A minus sign (−) denotes no growth; a plus sign (+) denotes confluent growth; a capital P (P) denotes particle growth
[8] = 24 hour exposure, lantern slide coatings
[9] = 0.01% AgAOT substituted for NaAOT, 0.00061% weight silver in coating
[10] = 0.5% AgAOT substituted for NaAOT, 0.031% weight silver in coating
[11] = 1.0% AgAOT substituted for NaAOT, 0.061% weight silver in coating
[12] = 3.0% AgAOT substituted for NaAOT, 0.18% weight silver in coating
[13] = 10.0% AgAOT substituted for NaAOT, 0.61% weight silver in coating
[14] = 0.031% weight w/w Ag in coating (first column 0.0574)
[15] = 0.061% weight w/w Ag in coating (first column 0.113)
[16] = 0.122% weight w/w Ag in coating (first column 0.226)

## silver bis[2-ethylhexyl]sulfosuccinate
[1]; laboratory acrylic clearcoat
  silver level at which partial growth is observed: 0.0012 % Ag w/w
[1]; 0.0012 weight % Ag in coating
  surviving bacteria (growth): P
[1]; 0.003 weight % Ag in coating
  surviving bacteria (growth): −
[1]; 0.006 weight % Ag in coating
  surviving bacteria (growth): −
[1]; 0.012 weight % Ag in coating
  surviving bacteria (growth): −
[1]; 0.03 weight % Ag in coating
  surviving bacteria (growth): −
[1]; 0.06 weight % Ag in coating
  surviving bacteria (growth): −
[1]; 0.12 weight % Ag in coating
  surviving bacteria (growth): −
[2]; 0.0012 weight % Ag in coating
  surviving bacteria (growth): +
[2]; 0.003 weight % Ag in coating
  surviving bacteria (growth): +
[2]; 0.006 weight % Ag in coating
  surviving bacteria (growth): +
[2]; 0.012 weight % Ag in coating
  surviving bacteria (growth): +
[2]; 0.03 weight % Ag in coating
  surviving bacteria (growth): +
[2]; 0.06 weight % Ag in coating
  surviving bacteria (growth): −
[2]; 0.12 weight % Ag in coating
  surviving bacteria (growth): −
[3]; [8]
  level of substitution resulting in complete killing of the E. coli: ≥ 0.5 % weight of silver bis[2-ethylhexyl]sulfosuccinate relative to the 30% NaAOT control weight
  level resulting in complete killing of the E. coli: ≥ 0.031 % Ag^+ relative to coating weight
[3]; [9]
  CFU/mL of E. coli at 0 hours: 5.4 × 10^5 CFU/mL and 5.5 × 10^5 CFU/mL
  CFU/mL of E. coli at 24 hours: 8.4 × 10^3 CFU/mL and 5.9 × 10^6 CFU/mL
[3]; 0.1% AgAOT substituted for NaAOT, 0.0061% weight silver in coating
  CFU/mL of E. coli at 0 hours: 4.1 × 10^5 CFU/mL and 4.7 × 10^5 CFU/mL
[3]; [10]
  CFU/mL of E. coli at 0 hours: 4.1 × 10^5 CFU/mL and 4.8 × 10^5 CFU/mL
  CFU/mL of E. coli at 24 hours: 0; 0 CFU/mL
[3]; [11]
  CFU/mL of E. coli at 0 hours: 4.4 × 10^5 CFU/mL and 5.9 × 10^5 CFU/mL
  CFU/mL of E. coli at 24 hours: 0; 0 CFU/mL
[3]; [12]
  CFU/mL of E. coli at 0 hours: 7.5 × 10^5 CFU/mL and 4.7 × 10^5 CFU/mL
  CFU/mL of E. coli at 24 hours: 0; 0 CFU/mL
[3]; [13]
  CFU/mL of E. coli at 0 hours: 4.0 × 10^5 CFU/mL and 3.9 × 10^5 CFU/mL
  CFU/mL of E. coli at 24 hours: 0; 0 CFU/mL
[4]; each of the household surface samples, 24 h contact time
  E. coli eradication: eradicated
[4]; household surface samples, 0 h contact time (5-10 minutes)
  attenuation of E. coli growth: does not significantly attenuate
[4]; metal plate, 0 h contact time
  CFU/mL, Avg: 3.10E+05 CFU/mL
  CFU/mL, Run #1-#2: 3.40E+05 CFU/mL and 2.80E+05 CFU/mL
[4]; metal plate, 24 h contact time
  CFU/mL, Avg: 0.00E+00 CFU/mL
  CFU/mL, Run #1-#2: 0.00E+00 CFU/mL
[4]; vinyl tile, 0 h contact time
  CFU/mL, Avg: 2.60E+05 CFU/mL
  CFU/mL, Run #1-#2: 2.30E+05 CFU/mL and 2.90E+05 CFU/mL
[4]; vinyl tile, 24 h contact time
  CFU/mL, Avg: 0.00E+00 CFU/mL
  CFU/mL, Run #1-#2: 0.00E+00 CFU/mL
[4]; wall-paper, 0 h contact time
  CFU/mL, Avg: 1.94E+05 CFU/mL
[4]; wall-paper, 24 h contact time
  CFU/mL, Avg: 0.00E+00 CFU/mL
  CFU/mL, Run #1-#2: 0.00E+00 CFU/mL
[5]; 12 h exposure
  level giving complete killing of the E. coli: above 0.031 % weight Ag relative to overall coating weight
[5]; 12 hours of exposure
  overall level effective as a bactericide: 0.06 % weight silver relative to coating weight
[5]; 0.012% weight w/w Ag in coating (first column 0.0226)
  CFU/mL of E. coli at 24 hours: 0, 0, 0 CFU/mL
[5]; [14]
  CFU/mL of E. coli at 12 hours: 0, 0, 0 CFU/mL
  CFU/mL of E. coli at 24 hours: 0, 0, 0 CFU/mL
[5]; [15]
  CFU/mL of E. coli at 12 hours: 0, 0, 0 CFU/mL
  CFU/mL of E. coli at 24 hours: 0, 0, 0 CFU/mL
[5]; [16]
  CFU/mL of E. coli at 12 hours: 0, 0, 0 CFU/mL
  CFU/mL of E. coli at 24 hours: 0, 0, 0 CFU/mL
[5]; at and above 0.012% weight Ag relative to overall coating weight, 24 h
  reduction of the number of viable bacteria: 3 logs
[6]; 0.0012 weight % Ag in coating
  surviving bacteria (growth): +
[6]; 0.003 weight % Ag in coating
  surviving bacteria (growth): +
[6]; 0.006 weight % Ag in coating
  surviving bacteria (growth): +
[6]; 0.012 weight % Ag in coating
  surviving bacteria (growth): +
[6]; 0.03 weight % Ag in coating
  surviving bacteria (growth): +
[6]; 0.06 weight % Ag in coating
  surviving bacteria (growth): −
[6]; 0.12 weight % Ag in coating
  surviving bacteria (growth): −
[6]; commercial 2K epoxy paint
  silver level giving complete inhibition of growth: 0.06 % w/w
[7]; 0.0012 weight % Ag in coating
  surviving bacteria (growth): +
[7]; 0.003 weight % Ag in coating
  surviving bacteria (growth): +
[7]; 0.006 weight % Ag in coating
  surviving bacteria (growth): P
[7]; 0.012 weight % Ag in coating
  surviving bacteria (growth): −
[7]; 0.03 weight % Ag in coating
  surviving bacteria (growth): −

Several values for one entry are separate records, joined by “and”; a condition that tells them apart may be missing. Identical values can stand only once.
